Anti-infective test results gathered from many reports (values: NIAID ChemDB through PubChem).

Shared fields: toxicity to cultured cells; cell line: PBMC; measure: CC50

CCn is the concentration with n% toxicity to the cells. An empty or dashed field is not shown. Lines come from different laboratories, so protocols vary. a–b is a range or a potency band.

smiles,method,value
O=C(NCCc1ccc2c(n1)NCCC2)Nc1ccc(F)c(F)c1,,6.4 µM
N#CC1=C[C@@H](n2ccc(N)nc2=O)O[C@H]1CO,,>100 µM
CC(C)(C)OC(=O)Nc1cccc(CCNC(=O)NCc2ccc(Cl)c(Cl)c2)n1,,28 µM
CN(C)CCSc1nc(-c2cccs2)cc(-c2cccn2C)n1,,100 µM
CC(C)(C)C(=O)OCOP(=O)(CC[C@H]1O[C@@H](n2ccc(N)nc2=O)[C@](C)(F)[C@@H]1O)OCOC(=O)C(C)(C)C,,>100 µM
O=c1[nH]c(=O)n([C@@H]2O[C@@H](CO)[C@H](O)C2(F)F)cc1Br,,>100 µM
Cc1ccc2nc(Cl)c(/C=C/C(=O)c3ccc(C)o3)cc2c1,MTS,10.8 µM
O=C(NCCc1ccccn1)NCc1ccc(Cl)c(Cl)c1,,50 µM
[N-]=[N+]=N[C@H]1C[C@H](n2ccc(=O)[nH]c2=O)O[C@@H]1COP(=O)(O)OP(=O)(O)O[C@H]1O[C@H](CO)[C@@H](O)[C@H](O)[C@H]1O,,>100 µM
CN1CCN(c2nc(-c3ccccc3)nc3ccccc23)CC1,,100 µM
O=C(CN1c2c(-c3ccccc3)n[nH]c2-c2ccccc2S1(=O)=O)N/N=C/c1c(Cl)cccc1Cl,,12.9 µM
COc1ccc2nc(Cl)c(/C=C/C(=O)c3ccc[nH]3)cc2c1,MTS,1.7 µM
COc1cc2c(cc1N)CN(c1nn3c(C4CC4)nnc3c3ccccc13)CC2,,9.13–13 µM
Nc1ccn([C@@H]2S[C@H](CO)C=C2F)c(=O)n1,,>100 µM
Cc1nnc2c3ccccc3c(N3CCc4cc(O)c(O)cc4C3)nn12,,3.28 µM
CCN(CC)c1ccc(/C=N/NC(=O)CN2c3c(-c4ccccc4)n[nH]c3-c3ccccc3S2(=O)=O)cc1,,52.2 µM
CCN(CCN(C)C)c1cc(-c2ccccc2)nc2ccccc12,,100 µM
Cc1nnc2c3c(c(N4CCc5ccccc5C4)nn12)C1CCC3CC1,,7.78 µM
Cc1c(-c2ccc(SCCN(C)C)cc2)ncnc1-c1ccc(SCCN(C)C)cc1,,100 µM
O=C(CN1c2c(-c3ccccc3)n[nH]c2-c2ccccc2S1(=O)=O)N/N=C/c1ccc(Cl)cc1,,31.6 µM
CN1CCc2ccc(NC(=O)NCCc3ccc4c(n3)NCCC4)cc21,,1.1 µM
NNC(=O)CN1c2c(-c3ccccc3)n[nH]c2-c2ccccc2S1(=O)=O,,>100 µM
CN(C(=O)NCCc1ccc2c(n1)NCCC2)c1cccc(F)c1,,50 µM
CN1CCN(CCSc2nc(-c3ccccc3)c3ccccc3n2)CC1,,100 µM
Nc1nccc2c1ncn2[C@@H]1O[C@H](CO)[C@@H](O)[C@H]1O,,9.99 µM
COc1ccc2c(c1)CN(c1nn3c(C)nnc3c3ccccc13)CC2,,0.97 µM
Nc1ccn([C@H]2O[C@@H](CO)[C@H](O)C2(F)F)c(=O)n1,,>100 µM
O=C(NCCc1ccc2c(n1)NCCC2)Nc1ccc2nc(C(F)(F)F)[nH]c2c1,,50 µM
CN(C)CCNc1c2c(nc3ccccc13)-c1ccccc1CC2,,100 µM
N#CC1=C[C@@H](n2cnc3c(N)ncnc32)O[C@H]1CO,,>100 µM
Cc1ccc(-c2cccc(-c3ccc(CNCCN(C)C)cc3)n2)cc1,,10 µM
Cc1ccc2nc(Cl)c(/C=C/C(=O)c3sccc3Cl)cc2c1,MTS,15.8 µM
Cc1nnc2c3ccccc3c(N3CCc4ccc(C#N)cc4C3)nn12,,19.9 µM
Nc1nc(=O)n([C@@H]2O[C@@H](CO)[C@H](O)C2(F)F)cc1F,,>100 µM
CN(C)CCNc1c2c(nc3ccccc13)-c1ccsc1CC2,,100 µM
Cc1cn([C@H]2O[C@@H](CO)[C@H](C#N)[C@@H]2O)c(=O)[nH]c1=O,,>100 µM
CN(CCc1ccc2c(n1)NCCC2)C(=O)Nc1ccc(Cl)c(Cl)c1,,7.2 µM
N#C[C@@H]1[C@H](O)[C@@H](n2cnc3c(=O)[nH]cnc32)O[C@H]1CO,,>100 µM
c1ccc2c(c1)CCN(c1nn3c(-c4ccsc4)nnc3c3ccccc13)C2,,38.8 µM
Nc1nc(=O)n(C2O[C@@H](CO)[C@H](O)C2(F)F)cc1Br,,>100 µM
Nc1ccn([C@@H]2O[C@H](CO)C=C2F)c(=O)n1,,7.3 µM
CN(C)CCNc1nc(-c2cccc(SCCN(C)C)c2)cc(-c2cccs2)n1,,10 µM
O=C(NCCc1cccnc1)NCCc1ccc2c(n1)NCCC2,,50 µM
Nc1ccn([C@H]2S[C@@H](CO)C=C2F)c(=O)n1,,>100 µM
CC(C)(C)C(=O)OCOP(=O)(CC[C@H]1O[C@@H](n2cnc3c(N)nc(N)nc32)[C@](C)(F)[C@@H]1O)OCOC(=O)C(C)(C)C,,>100 µM
Nc1nccc2c1ncn2[C@@H]1C[C@H](CO)[C@@H](O)[C@H]1O,,9.99 µM
CSc1ccccc1NC(=O)NCCc1ccc2c(n1)NCCC2,,6.3 µM
N#C[C@@H]1[C@H](O)[C@@H](n2cnc3c(N)ncnc32)O[C@H]1CO,,>100 µM
CN(C)CCNc1nc(-c2ccco2)cc(-c2cc3ccccc3s2)n1,,10 µM
N#C[C@@H]1[C@H](O)[C@@H](n2cnc3c(=O)[nH]c(N)nc32)O[C@H]1CO,,>100 µM
Cc1ccc2nc(Cl)c(/C=C/C(=O)c3c4ccccc4cc4ccccc34)cc2c1,MTS,83 µM

The last 7 rows once more:

| smiles | method | value |
|---|---|---|
| CC(C)(C)C(=O)OCOP(=O)(CC[C@H]1O[C@@H](n2cnc3c(N)nc(N)nc32)[C@](C)(F)[C@@H]1O)OCOC(=O)C(C)(C)C |  | >100 µM |
| Nc1nccc2c1ncn2[C@@H]1C[C@H](CO)[C@@H](O)[C@H]1O |  | 9.99 µM |
| CSc1ccccc1NC(=O)NCCc1ccc2c(n1)NCCC2 |  | 6.3 µM |
| N#C[C@@H]1[C@H](O)[C@@H](n2cnc3c(N)ncnc32)O[C@H]1CO |  | >100 µM |
| CN(C)CCNc1nc(-c2ccco2)cc(-c2cc3ccccc3s2)n1 |  | 10 µM |
| N#C[C@@H]1[C@H](O)[C@@H](n2cnc3c(=O)[nH]c(N)nc32)O[C@H]1CO |  | >100 µM |
| Cc1ccc2nc(Cl)c(/C=C/C(=O)c3c4ccccc4cc4ccccc34)cc2c1 | MTS | 83 µM |